One molecule from US10913736B2 (UNIVERSITY OF WASHINGTON, priority 2014, dated 2021) can be followed below.

The chains behind the UniProt entries cited, without tags or fusion partners. Residues count along the entry.
UniProt Q38C91, 1-773: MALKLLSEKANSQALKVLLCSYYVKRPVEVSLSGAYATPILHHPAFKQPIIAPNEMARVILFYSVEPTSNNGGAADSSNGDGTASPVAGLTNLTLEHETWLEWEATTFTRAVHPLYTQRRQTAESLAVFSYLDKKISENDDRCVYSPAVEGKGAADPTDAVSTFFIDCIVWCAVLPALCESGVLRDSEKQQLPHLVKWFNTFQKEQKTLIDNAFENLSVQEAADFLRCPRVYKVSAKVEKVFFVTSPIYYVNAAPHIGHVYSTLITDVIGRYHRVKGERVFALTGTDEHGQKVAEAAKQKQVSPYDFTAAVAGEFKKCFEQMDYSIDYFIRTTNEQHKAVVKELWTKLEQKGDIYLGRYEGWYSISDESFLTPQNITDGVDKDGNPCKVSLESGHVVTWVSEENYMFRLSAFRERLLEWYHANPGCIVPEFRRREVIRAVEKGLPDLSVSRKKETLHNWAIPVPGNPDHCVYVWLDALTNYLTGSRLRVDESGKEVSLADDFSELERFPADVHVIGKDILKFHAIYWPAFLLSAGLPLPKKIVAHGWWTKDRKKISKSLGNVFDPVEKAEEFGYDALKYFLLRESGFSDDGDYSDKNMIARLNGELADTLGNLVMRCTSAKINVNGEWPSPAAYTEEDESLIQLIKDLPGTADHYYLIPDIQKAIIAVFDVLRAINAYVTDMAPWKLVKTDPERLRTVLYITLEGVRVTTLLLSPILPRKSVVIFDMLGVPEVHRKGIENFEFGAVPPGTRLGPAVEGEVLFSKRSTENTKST

Assay [1] has as its system T. brucei. Nature of the assay: Growth inhibition assay of T. brucei cell cultures (Alamar Blue, 48 h). In kind it is cell-based. The following applies: read-out: B) T. brucei EC50. For orientation: The colour change of resazurin is a common sign of viable cells or microbes.
The target of assay [2] is MetRS (T. brucei) (Trypanosoma brucei brucei, UniProt Q38C91). Nature of the assay: MetRS (T. brucei) ATP depletion assay using Kinase-Glo. The following applies: read-out: A) MetRS (T. brucei) ATP depletion assay using Kinase-Glo, IC50. The assay is classed as biochemical. (In general: Kinase-Glo measures the ATP left after a reaction by luminescence.)

The match of structure and compound is tentative.

Broadly, the EC50 is the midpoint of the concentration-response curve. Broadly, the IC50 is the point on the concentration scale where inhibition reaches its midpoint. For the molecule `Clc1cc(Cl)cc(CNCCc2nc3cnc(Cl)cc3[nH]2)c1`, the EC50 in assay [1] is 1020 nM. The IC50 in assay [2] came to 87 nM.
